Source: PubChem BioAssay AID624099 (ICCB-Longwood, 2012)

Assay: 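Host factors E2 relies on to silence an HPV18 LCR reporter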 (primary screen)
Cells: human C33A cervical carcinoma cells (HPV-negative) stably expressing BPV1 E2 and an HPV18 LCR luciferase reporter
Reagent: siRNA pool against human genes, 40 nM
Timing: 72 h
Detection: 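Per-well luciferase luminescence, z-scored on each plate against the plate mean and SD with control wells left out, then averaged across three replicate plates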
Direction: mean z-score and z-score: higher = stronger reporter signal, weaker E2 silencing
Hit rule: 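Hit if mean z-score reaches 2 and two or more of three replicate z-scores also reach 2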
In all, the deposit lists about 21,000 reagents; below is a random part of them. 497 of them (2.4%) count as active. 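Higher z means weaker E2 silencing; only reporter increases were scored, and knock-downs that hurt cell survival may mask genuine repressor factors.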 No sequences are given here.

| Gene | mean z-score | z-score, replicate A | z-score, replicate B | z-score, replicate C | call |
| --- | --- | --- | --- | --- | --- |
| DGKG (diacylglycerol kinase gamma) | 0.31 | 0.81 | 0.21 | -0.09 | inactive |
| SMCP (sperm mitochondria associated cysteine rich protein) | -1.3 | -1.17 | -1.21 | -1.52 | inactive |
| MPRIP (myosin phosphatase Rho interacting protein) | -0.42 | -0.69 | -0.3 | -0.25 | inactive |
| OR12D3 (olfactory receptor family 12 subfamily D member 3) | 0.81 | 0.62 | 0.84 | 0.97 | inactive |
| BMS1P20 (BMS1 pseudogene 20) | -0.62 | -0.84 | -0.8 | -0.24 | inactive |
| PIGH (phosphatidylinositol glycan anchor biosynthesis class H) | -0.34 | -0.79 | -0.17 | -0.06 | inactive |
| FBXO30 (F-box protein 30) | -2.38 | -2.22 | -2.68 | -2.24 | inactive |
| TAF8 (TATA-box binding protein associated factor 8) | 1.05 | 0.83 | 1.34 | 0.99 | inactive |
| GPR143 (G protein-coupled receptor 143) | -1.02 | -1.01 | -1.02 | -1.02 | inactive |
| RTN4 (reticulon 4) | -0.93 | -0.99 | -0.82 | -0.99 | inactive |
| UBA6 (ubiquitin like modifier activating enzyme 6) | -0.3 | -0.29 | -0.72 | 0.11 | inactive |
| CD72 (CD72 molecule) | 1.03 | 0.79 | 1.18 | 1.12 | inactive |
| CBX6 (chromobox 6) | 0.44 | 0.16 | 0.55 | 0.62 | inactive |
| BATF (basic leucine zipper ATF-like transcription factor) | 0.54 | 0.85 | 0.48 | 0.29 | inactive |
| NAPA (NSF attachment protein alpha) | 0.04 | 0.07 | -0.18 | 0.21 | inactive |
| CDH2 (cadherin 2) | -0.16 | -0.54 | 0.27 | -0.22 | inactive |
| SAMD3 (sterile alpha motif domain containing 3) | 0.77 | 0.84 | 0.83 | 0.65 | inactive |
| ZNF219 (zinc finger protein 219) | -0.04 | 0.32 | -0.39 | -0.05 | inactive |
| CFC1 (cryptic, EGF-CFC family member 1) | -0.25 | -0.32 | -0.12 | -0.32 | inactive |
| NFATC2 (nuclear factor of activated T cells 2) | 0.35 | 0.43 | 0.22 | 0.4 | inactive |
| SMYD5 (SMYD family member 5) | -0.42 | -0.68 | -0.36 | -0.23 | inactive |
| APC (APC regulator of Wnt signaling pathway) | 0.27 | 0.3 | 0.32 | 0.2 | inactive |
| PAK2 (p21 (RAC1) activated kinase 2) | 0.05 | 0.31 | -0.17 | 0.02 | inactive |
| FBN1 (fibrillin 1) | -0.22 | -0.14 | -0.26 | -0.27 | inactive |
| PCDH1 (protocadherin 1) | -1.31 | -1.2 | -1.35 | -1.37 | inactive |
| ZNF223 (zinc finger protein 223) | 0.82 | 0.77 | 0.78 | 0.92 | inactive |
| CLDN6 (claudin 6) | -0.32 | -0.28 | -0.22 | -0.44 | inactive |
| GIGYF2 (GRB10 interacting GYF protein 2) | 0.06 | 0.39 | -0.07 | -0.14 | inactive |
| THA1P (threonine aldolase 1, pseudogene) | -0.34 | -0.06 | -0.48 | -0.48 | inactive |
| FXYD7 (FXYD domain containing ion transport regulator 7) | 1.25 | 1.51 | 1.18 | 1.05 | inactive |
| CCL27 (C-C motif chemokine ligand 27) | 0.68 | 0.75 | 0.81 | 0.49 | inactive |
| EXOC6 (exocyst complex component 6) | -0.38 | -0.44 | -0.54 | -0.15 | inactive |
| BMERB1 (bMERB domain containing 1) | 0.19 | 0.14 | 0.11 | 0.32 | inactive |
| CLEC11A (C-type lectin domain containing 11A) | 0.61 | 0.53 | 0.58 | 0.74 | inactive |
| TLX1 (T cell leukemia homeobox 1) | 0.69 | 0.49 | 0.88 | 0.7 | inactive |
| TOX4P1 (TOX high mobility group box family member 4 pseudogene 1) | -0.11 | -0.13 | -0.21 | 0.01 | inactive |
| ALPK3 (alpha kinase 3) | 1.78 | 1.69 | 1.82 | 1.83 | inactive |
| TIPRL (TOR signaling pathway regulator) | 0.37 | 0.72 | 0.07 | 0.31 | inactive |
| PFN1 (profilin 1) | -0.42 | -0.42 | -0.35 | -0.48 | inactive |

Taken from above.
BMERB1 (bMERB domain containing 1), z-score, replicate C = 0.32
Entry for CCL27 (C-C motif chemokine ligand 27) in “z-score, replicate C”: 0.49
For “z-score, replicate A”, PAK2 (p21 (RAC1) activated kinase 2) reads 0.31
